A mixed list of measured activities; the numbers were collected in NIAID ChemDB.

All rows: growth or infection tests; species: HIV-2; method: cytopathic effect / XTT; read-out: EC50

Conditions beyond the fields shown may differ between rows. Blank or dashed fields: not listed here. ECn: concentration that inhibits the pathogen or its effect by n%.

smiles | strain or isolate | cells | result
CCCc1cc(=O)oc2c3c(c4c(c12)OC(C)(C)C=C4)O[C@H](C)[C@@H](C)[C@@H]3O | ROD | CEM + CEM-SS | >10 µM
CC(C)=CCN1Cc2cccc3[nH]c(=S)n(c23)C[C@@H]1C | CBL-20 | CEM + CEM-SS | >100 µM
Cc1cn([C@H]2C[C@H](N=[N+]=[N-])[C@@H](CO)O2)c(=O)[nH]c1=O | MS | U-937 | 0.094 µg/mL
Cc1ccnc2c1NC(=O)c1cccnc1N2C1CC1 | ROD | CEM + CEM-SS | >38 µM
O=[N+]([O-])c1ccccc1S(=O)(=O)c1ccccc1 | - | CEM + CEM-SS | >114 µM
Cc1cn([C@H]2C[C@H](N=[N+]=[N-])[C@@H](CO)O2)c(=O)[nH]c1=O | NIH-A7 | CEM + CEM-SS | 0.014 µM
Cc1cn([C@H]2C[C@H](N=[N+]=[N-])[C@@H](CO)O2)c(=O)[nH]c1=O | ROD | - | 0.002 µM
CCc1c(Sc2ccccn2)n(COCc2ccccc2)c(=O)[nH]c1=O | - | CEM + CEM-SS | >2.7 µM
Cc1cn([C@H]2C[C@H](N=[N+]=[N-])[C@@H](CO)O2)c(=O)[nH]c1=O | CBL-20 | CEM + CEM-SS | <0.01 µM
Cc1cn([C@H]2C[C@H](N=[N+]=[N-])[C@@H](CO)O2)c(=O)[nH]c1=O | - | CEM + CEM-SS | 0.02 µM
Cc1cn([C@H]2C[C@H](N=[N+]=[N-])[C@@H](CO)O2)c(=O)[nH]c1=O | MS | CEM + CEM-SS | 0.003 µM
O=S1(c2ccccc2)=NC(=S)Nc2ccccc21 | - | CEM + CEM-SS | >73 µM
CCc1c(Sc2ccccn2)n(COCc2ccccc2)c(=O)[nH]c1=O | ROD | CEM + CEM-SS | >2.7 µM
O=S1(c2ccccc2)=NC(=S)Nc2ccccc21 | MS | CEM + CEM-SS | >73 µM
CC(C)(C)OC(=O)N[C@@H](Cc1ccccc1)[C@H](O)CNC[C@@H](O)[C@H](Cc1ccccc1)NC(=O)C(C)(O)C(C)(C)C | CBL-20 | CEM + CEM-SS | 0.16 µM